Laboratory results reported in article PMC4057017.
“And” between values parts separate entries of the source, which are not always exact repeats. Equal entries are not always repeated. Where two headings read alike, the source gives them in different places.

Key:
[1] = target: IAVI C22 EnvΔCT trimer (cleaved, membrane-derived) (HIV-1 isolate IAVI C22 (clade C)); assay: single particle EM reconstruction
[2] = target: BG505 SOSIP.664 gp140 trimer (soluble, cleaved) (HIV-1 isolate BG505 (clade A)); assay: ITC
[3] = target: IAVI C22 EnvΔCT trimer (cleaved, membrane-derived) (HIV-1 isolate IAVI C22 (clade C)); assay: single particle EM reconstruction; remark: listed apart in the source
[4] = target: BG505 SOSIP.664 gp140 trimer (soluble, cleaved) (HIV-1 isolate BG505 (clade A)); assay: single particle EM
[5] = target: IAVI C22 EnvΔCT trimer (cleaved, membrane-derived) (HIV-1 isolate IAVI C22 (clade C)); assay: pull-down

Substance	stoichiometry N (Fabs per trimer) [1]	stoichiometry N [2]	stoichiometry N (Fabs per trimer) [3]	stoichiometry N (Fabs per trimer) [4]	percent of total Env content purified [5] [%]
PGT151 Fab	1	1.3	2	2 and 1	–
PGT151 IgG (antibody)	–	–	–	–	10
